Pooled drug test results. Numbers come from NIAID ChemDB, via PubChem.

Shared fields: growth or infection tests

MIC50, MIC90 and the like: level of inhibition, or share of isolates inhibited. Rows are shuffled and stem from different studies. Two numbers with a dash give a range or band. Inhibition is in % at the dose shown (toxicity tests: loss of growth or viability). Fold resistance: result on the changed form divided by that on wild type. ECn is the concentration giving n% inhibition of infection, replication or growth. Blank or dashed fields: not listed here.

| smiles | species | strain | changes | cell line | read by | conditions | endpoint | dose | result |
|---|---|---|---|---|---|---|---|---|---|
| Nc1nc(=O)n2ccn(C3O[C@H](CO)[C@@H](O)[C@H]3O)c2n1 | West Nile virus |  |  |  |  |  | EC50 |  | >100 µM |
| CC(C)Nc1nc2cc(Cl)c(Cl)cc2n1[C@@H]1O[C@H](CO)[C@@H](O)[C@H]1O | Human cytomegalovirus | AD169 |  | MRC-5 | plaque count |  | EC50 |  | 7.5 µM |
| O=C(NC(=O)C1C[C@@H]1c1ccccc1)c1ccccc1O | Toxoplasma gondii |  |  | Human foreskin fibroblasts |  |  | MIC50 |  | >0.25 µM |
| Nc1nc(=O)n2ccn([C@@H]3O[C@H](CO)[C@@H](O)[C@H]3O)c2n1 | Dengue virus | TYPE 2 |  |  |  |  | EC50 |  | >100 µM |
| COc1ccc2oc(=O)n(-c3ccc(F)cc3)c(=S)c2c1 | Mycobacterium kansasii | My 235/80 |  |  |  | 14 d | MIC |  | 16 µM |
| Fc1ccc(Cn2cnc3c(Nc4cccc(F)c4)nc(C(F)(F)F)nc32)cc1 | Rhinovirus | Serotype 2 |  | M-HELA | plaque count |  | EC50 |  | 6.7 µM |
| CC(C)(O)c1cn(-c2ccc(Cl)cc2)nn1 | Candida parapsilosis | URM 4889 |  |  | broth dilution |  | MIC |  | 64 µg/mL |
| Nc1ccc(C(=O)NC(=O)c2ccccc2O)cc1 | Toxoplasma gondii |  |  | Human foreskin fibroblasts |  |  | MIC50 |  | >1 µM |
| COc1ccccc1NC(=S)NC(=O)c1ccccc1COc1ccc(Cl)cc1 | Toxoplasma gondii | RH beta-gal |  | Human foreskin fibroblasts (HFF) |  |  | EC50 |  | 99 µM |
| Cc1cn([C@H]2O[C@@H](CO)[C@H](O)[C@H]2F)c(=O)[nH]c1=O | Epstein-Barr virus |  |  | H-1 |  |  | EC90 |  | 5 µM |
| Fc1cccc(Cn2cnc3c(Nc4cccc(F)c4)nc(C(F)(F)F)nc32)c1 | Rhinovirus | Serotype 8 |  | M-HELA | plaque count |  | EC50 |  | 3.7 µM |
| CN[C@H]1CC[C@@H](c2ccc(Cl)c(Cl)c2)c2ccccc21 | Cryptococcus neoformans | UA 491 |  |  | broth dilution |  | MIC90 |  | 4 µg/mL |
| CCn1nc(CC(=O)N/N=C/c2ccco2)nc1C | Respiratory syncytial virus |  |  |  |  |  | MIC |  | >400 µg/mL |
| Nc1nc2c(ncn2[C@H]2C[C@@H](O)[C@H](O)[C@@H]2O)c(=O)[nH]1 | Epstein-Barr virus |  |  | DAUDI | hybridisation |  | EC50 |  | >50 µg/mL |
| COc1c(N2CCNC(C)C2)c(F)cc2c(=O)c(C(=O)O)cn(C3CC3)c12 | Klebsiella pneumoniae | 58 strains |  |  |  |  | MIC90 |  | 0.5 µg/mL |
| CC(C)(O)c1cn(-c2cccc3ccccc23)nn1 | Candida parapsilosis | URM 4608 |  |  | broth dilution |  | inhibition | 2048 µg/mL | 0% |
| Nc1nc2c(ncn2[C@@H]2C[C@H](CO)[C@H]2CO)c(=O)[nH]1 | Mouse cytomegalovirus | Smith (resistant) |  | HFF | plaque count |  | EC50 |  | 2.45 µM |
| C=CCc1ccc(OC)c(OC)c1 | Candida glabrata | 3147 |  |  | turbidity |  | MIC90 |  | 340 µg/mL |
| CCC(=O)C(CCCCCCOc1ccc(OC)cc1Cl)C(=O)CC | Mouse cytomegalovirus | SMITH |  | MEF | plaque count |  | inhibition | 3 µg/mL | 35% |
| C=C/C(C)=C/[C@@]1(C)SC(=O)C(C)=C1O | Escherichia coli | SJ260 (F143) |  |  |  |  | MIC |  | >600 µM |
| Nc1nc2c(ncn2COC(CO)CO)c(=O)[nH]1 | Human cytomegalovirus | C8301 |  | MRC-5 | plaque count |  | EC50 |  | 1.1 µM |
| Nc1ccn(C[C@@H](CO)OCP(=O)(O)O)c(=O)n1 | Mouse cytomegalovirus | Smith (resistant) |  | HFF | plaque count |  | EC50 |  | 0.31 µM |
| CCn1nc(-c2ccc(Cn3ccc4ccccc43)cc2)nc1C | Parainfluenza virus | TYPE 3 |  |  |  |  | MIC |  | >80 µg/mL |
| CCN=C1NC2C(OC(CO)C(O)C2O)S1 | Kaposi sarcoma virus |  |  | HEK 293 | flow cytometry |  | inhibition | 1 µM | 30% |
| C=Cc1cn(CC(CO)CO)c(=O)[nH]c1=O | Duck hepatitis B virus |  |  |  |  |  | EC50 |  | 1–3 µg/mL |
| COc1ccc(-n2c(Cc3nc4n(n3)CCCC4)n[nH]c2=S)cc1 | Reovirus | TYPE 1 |  |  |  |  | MIC |  | >400 µg/mL |
| Nc1nc2c(ncn2COCCO)c(=O)[nH]1 | Epstein-Barr virus |  |  | H-1 |  |  | EC90 |  | 50 µM |
| Fc1ccc2oc(=S)n(-c3ccc(Br)cc3)c(=S)c2c1 | Mycobacterium kansasii | 6509/96 |  |  |  | 14 d | MIC |  | 2 µM |
| Cc1cc(S(N)(=O)=O)ccc1NC(=O)COc1ccc(Cl)cc1C(=O)c1cc(F)cc(C#N)c1 | HIV-1 | HXB2 | RT-L100I | HeLa + HELA CD4+ | β-galactosidase |  | fold resistance |  | ~1 |
| CCOC(=O)c1ccc(OCCC2CCN(c3ccc(C)nn3)CC2)cc1 | Rhinovirus | FO2-2513 (ICAM-1 receptor group 69) |  | KB | neutral red |  | EC50 |  | 0.136 µM |
| CCCCCCCCOC(=O)[C@]1(O)C[C@@H](O)[C@@H](O)[C@H](OC(=O)/C=C/c2ccc(O)c(O)c2)C1 | Aspergillus parasiticus | Speare UMIP 1142.76 |  |  |  |  | MIC80 |  | 1000 µg/mL |
| Fc1cccc(Nc2nc(C(F)(F)F)nc3c2ncn3Cc2ccc(C(F)(F)F)cc2)c1 | Rhinovirus | Serotype 2 |  | M-HELA | plaque count |  | EC50 |  | 43 µM |
| Nc1nc2c(ncn2CCC(CO)CO)c(=O)[nH]1 | Equine herpesvirus 1 | B927 |  | FEA | plaque count |  | EC50 |  | 0.9 µg/mL |
| CC(C)(O)c1cn(-c2ccc([N+](=O)[O-])cc2)nn1 | Candida albicans | URM 3716 |  |  | broth dilution |  | inhibition | 2048 µg/mL | 0% |
| C[C@@H](c1ncncc1F)[C@](O)(Cn1cncn1)c1ccc(F)cc1F | Aspergillus lentulus |  |  |  | broth dilution |  | MIC90 |  | 2 µg/mL |
| O=C(NC(=S)Nc1ccccc1Cl)c1ccccc1COc1ccc(Cl)cc1 | Toxoplasma gondii | RH beta-gal |  | Human foreskin fibroblasts (HFF) |  |  | EC50 |  | 83 µM |
| Cc1cc2[nH]cnc2cc1NC(=O)COc1ccc(Cl)cc1C(=O)c1cc(F)cc(C(F)(F)F)c1 | HIV-1 | HXB2 | RT-Y188C | HeLa + HELA CD4+ | β-galactosidase |  | fold resistance |  | ~1 |
| COc1ccc(NC(=S)NC(=O)c2ccccc2COc2ccc(Cl)cc2)cc1 | Toxoplasma gondii | RH beta-gal |  | Human foreskin fibroblasts (HFF) |  |  | EC50 |  | 116 µM |
| CC(C)(O)c1cn(-c2ccc3ccccc3c2)nn1 | Candida parapsilosis | URM 4818 |  |  | broth dilution |  | inhibition | 2048 µg/mL | 0% |
| CN(C)c1cccc2c(S(=O)(=O)Nc3ccc(NC(=O)C(C)(C)CO)cc3)cccc12 | Mouse cytomegalovirus | SMITH (WILD TYPE) |  | HFF | plaque count |  | EC50 |  | 0.05 µM |
| CCc1cc(C#N)cc(C(=O)c2cc(Cl)ccc2OCC(=O)Nc2ccc(S(N)(=O)=O)cc2C)c1 | HIV-1 | HXB2 | RT-P236L | HeLa + HELA CD4+ | β-galactosidase |  | fold resistance |  | ~1 |
| O=C(NNC(=O)c1ccccc1O)c1ccc(OC(F)(F)F)cc1 | Toxoplasma gondii |  |  | Human foreskin fibroblasts |  |  | MIC50 |  | >0.25 µM |
| Cc1cc(C#N)cc(C(=O)c2cc(Cl)ccc2OCC(=O)Nc2ccc(S(N)(=O)=O)cc2C)c1 | HIV-1 | HXB2 | RT-K103N P225H | HeLa + HELA CD4+ | β-galactosidase |  | fold resistance |  | ~1 |
| O=C(N[C@@H](C(=O)N1CCC[C@H]1c1ncc(-c2ccc(-c3ccc(-c4cnc([C@@H]5CCCN5C(=O)[C@H](NC(=O)C5CC5)c5ccccc5)s4)cc3)cc2)s1)c1ccccc1)C1CC1 | Hepatitis C virus | genotype 1b | Y93N+V153M+M202L+M265V | Huh7.5 | luciferase / reporter gene |  | fold resistance |  | 18217 |
| N#Cc1ccc(C(=O)NC(=O)c2ccccc2O)cc1 | Toxoplasma gondii |  |  | Human foreskin fibroblasts |  |  | MIC90 |  | >10 µM |
| Cc1nc(Cc2n[nH]c(=S)n2-c2ccccc2)nn1C | Sindbis virus |  |  |  |  |  | MIC |  | >80 µg/mL |
| Cc1ccc2oc(=S)n(-c3ccccc3)c(=S)c2c1 | Mycobacterium kansasii | My 235/80 |  |  |  | 14 d | MIC |  | 2 µM |
| O=C(NC(=S)Nc1cc(Cl)ccc1Cl)c1ccccc1COc1ccc(Cl)cc1 | Toxoplasma gondii | RH beta-gal |  | Human foreskin fibroblasts (HFF) |  |  | EC50 |  | 98 µM |
| O=C(NCc1ccc(Cl)cc1)c1c[nH]c2ccc(C#CCO)cc2c1=O | Human cytomegalovirus | SCH |  |  | plaque count |  | EC50 |  | 1.3 µM |
| Cc1ccc(NC(=S)NC(=O)c2ccccc2COc2ccc(Cl)cc2)cc1 | Toxoplasma gondii | RH beta-gal |  | Human foreskin fibroblasts (HFF) |  |  | EC50 |  | 31 µM |
| CC1(C)N=C(N)N=C(N)N1OCCCOc1cc(Cl)c(Cl)cc1Cl | Mycobacterium avium complex | 517 |  |  |  |  | MIC |  | 4 µg/mL |
| Cc1cc(S(N)(=O)=O)ccc1NC(=O)COc1ccc(Cl)cc1C(=O)c1cccc(C#N)c1 | HIV-1 | HXB2 | RT-K103N L100I | HeLa + HELA CD4+ | β-galactosidase |  | fold resistance |  | ~1 |
| NNC(=O)Cc1nc2n(n1)CCCCC2 | Punta Toro virus |  |  |  |  |  | MIC |  | >16 µg/mL |
| COc1ccc(OCc2ccccc2C(=O)NC(=S)Nc2ccc3ccccc3c2)cc1 | Toxoplasma gondii | RH beta-gal |  | Human foreskin fibroblasts (HFF) |  |  | EC50 |  | 83 µM |
| Nc1nc(=O)n2ccn([C@@H]3O[C@H](CO)C[C@H]3O)c2n1 | West Nile virus |  |  |  |  |  | EC50 |  | >100 µM |
| Cc1cc(OCCCS(N)(=O)=O)ccc1NC(=O)COc1ccc(Cl)cc1C(=O)c1cc(F)cc(C(F)(F)F)c1 | HIV-1 | HXB2 | RT-K103N V108I | HeLa + HELA CD4+ | β-galactosidase |  | fold resistance |  | ~1 |
| N#Cc1cc([N+](=O)[O-])ccc1Oc1ccc(Cl)c(Cl)c1 | Coxsackie virus | TYPE B4 |  | VERO | plaque count |  | inhibition | 2 µg/mL | 93.2% |
| S=c1[nH]nc(Cc2nc3n(n2)CCCCC3)o1 | Punta Toro virus |  |  |  |  |  | MIC |  | >80 µg/mL |
| COc1ccc2oc(=S)n(-c3ccc(Cl)c(Cl)c3)c(=S)c2c1 | Mycobacterium kansasii | 6509/96 |  |  |  | 14 d | MIC |  | 32 µM |

The first 4 rows once more:

{"smiles": "Nc1nc(=O)n2ccn(C3O[C@H](CO)[C@@H](O)[C@H]3O)c2n1", "species": "West Nile virus", "endpoint": "EC50", "result": ">100 µM"}
{"smiles": "CC(C)Nc1nc2cc(Cl)c(Cl)cc2n1[C@@H]1O[C@H](CO)[C@@H](O)[C@H]1O", "species": "Human cytomegalovirus", "strain": "AD169", "cell line": "MRC-5", "read by": "plaque count", "endpoint": "EC50", "result": "7.5 µM"}
{"smiles": "O=C(NC(=O)C1C[C@@H]1c1ccccc1)c1ccccc1O", "species": "Toxoplasma gondii", "cell line": "Human foreskin fibroblasts", "endpoint": "MIC50", "result": ">0.25 µM"}
{"smiles": "Nc1nc(=O)n2ccn([C@@H]3O[C@H](CO)[C@@H](O)[C@H]3O)c2n1", "species": "Dengue virus", "strain": "TYPE 2", "endpoint": "EC50", "result": ">100 µM"}